Compound potency records, mixed from different reports. Data source: NIAID ChemDB in PubChem.

All rows: tests in culture; organism: HIV-1; read by: MTT; read-out: EC50

Neighbouring rows are from separate reports. ECn is the concentration giving n% inhibition of infection, replication or growth. An empty or dashed field is not shown.

compound | changes | strain or isolate | cell line | result
CC(=O)c1ccc(C)cc1NC(C(N)=O)c1c(Cl)cccc1Cl | RT-T240I | IIIB | MAGI | 0.22 µM
C#Cc1ccc(Nc2nccc(Oc3c(C)cc(-c4cn(CC(=O)Nc5ccc(S(C)(=O)=O)cc5)nn4)cc3C)n2)cc1 | L100I | IIIB | MT-4 | >6.36 µM
c1cc(CN2CCCNCCNCCCNCC2)ccc1CN1CCCNCCNCCCNCC1 |  | Y181C (subtype B) | MT-4 | 0.002 µg/mL
Cc1cc(C#Cc2cccc(N)c2)cc(C)c1Oc1ccnc(NC2CCN(Cc3ccc(C#N)cc3)CC2)n1 | Y188L | IIIB | MT-4 | >0.261 µM
C#Cc1ccc(Nc2nccc(Oc3c(C)cc(-c4cn(-c5ccc(C(=O)OC)cc5)nn4)cc3C)n2)cc1 | E138K | IIIB | MT-4 | 0.16 µM
Cc1cc(C#N)cc(C)c1Oc1ccc(N)c(NC2CCN(Cc3ccc(S(N)(=O)=O)cc3)CC2)n1 |  | IIIB | MT-4 | 0.053 µg/mL
Cc1cc(C#Cc2cccc(N)c2)cc(C)c1Oc1ccnc(NC2CCN(Cc3cccc(C(N)=O)c3)CC2)n1 | L100I | IIIB | MT-4 | >0.63 µM
Cc1cc(C)c(Oc2ccc([N+](=O)[O-])c(NC3CCN(Cc4ccncc4)CC3)n2)c(C)c1 |  | IIIB | MT-4 | 0.833 µg/mL
Cc1cc(C#Cc2cccc(N)c2)cc(C)c1Oc1ccnc(NC2CCN(c3cccc(C(N)=O)c3)CC2)n1 | F227L + V106A | IIIB | MT-4 | >1.063 µM
Cc1cc(C)c(Oc2ccc(N)c(NC3CCN(Cc4ccc(S(N)(=O)=O)cc4)CC3)n2)c(C)c1 |  | IIIB | MT-4 | 0.112 µg/mL
Cc1cc(C#Cc2ccccn2)cc(C)c1Oc1ccnc(Nc2ccc(C#N)cc2)n1 | K103N | IIIB | MT-4 | 0.073 µM
O=C1Nc2ccc(Cl)cc2[C@@](C#CC2CC2)(C(F)(F)F)O1 |  | IIIB | MT-4 | 0.0087 µM
C#Cc1ccc(Nc2nccc(Oc3c(C)cc(-c4cn(CC(=O)Nc5ccc(Br)cc5)nn4)cc3C)n2)cc1 | L100I | IIIB | MT-4 | >19.78 µM
Cc1cc(C#Cc2cccc(N)c2)cc(C)c1Oc1ccnc(Nc2ccc(C#N)cc2)n1 | K103N | IIIB | MT-4 | 0.072 µM
C#Cc1ccc(Nc2nccc(Oc3c(C)cc(-c4cn(-c5cccc(C(=O)OC)c5)nn4)cc3C)n2)cc1 | Y181C | IIIB | MT-4 | 0.46 µM
Cc1cn([C@H]2C[C@H](N=[N+]=[N-])[C@@H](CO)O2)c(=O)[nH]c1=O |  | Y188L (subtype B) | MT-4 | 0.0007 µg/mL

Again, the opening 2 rows:

compound	changes	strain or isolate	cell line	result
CC(=O)c1ccc(C)cc1NC(C(N)=O)c1c(Cl)cccc1Cl	RT-T240I	IIIB	MAGI	0.22 µM
C#Cc1ccc(Nc2nccc(Oc3c(C)cc(-c4cn(CC(=O)Nc5ccc(S(C)(=O)=O)cc5)nn4)cc3C)n2)cc1	L100I	IIIB	MT-4	>6.36 µM